Data on one molecule can be found in paper PMC4552634, “A New Set of Chemical Starting Points with Plasmodium falciparum Transmission-Blocking Potential for Antimalarial Drug Discovery” (PLoS ONE, 2015).

In this test the test system is P. falciparum stage V gametocytes. The following applies: 48 h, 5 µM; inhibitor.

Take `CCN1CCCC(OC(=O)C(O)(c2ccc3c(c2)OCO3)c2ccc3c(c2)OCO3)C1` (stereo not shown): the % Inhibition (as a rule, the relative decrease from the control value, in per cent) is reported as -1.39%.
